One assay relates to Candida albicans. The assay can be described thus: Fungal growth inhibition, C. albicans (library hits, Tables A and B). It is filed as cell-based. Particulars: strain not stated; for MIC C. albicans (Table A): Table A in S1 File.
The next assay relates to C. parapsilosis. The assay can be described thus: Fungal growth inhibition, C. parapsilosis. It is filed as cell-based, Candida parapsilosis. Particulars: Table B in S1 File, strain not stated. From the text: (§1) Fungal isolates were purchased from American Type Culture Collection, except for C. glabrata strain Cg003, which was kindly provided by Julius Subik, Comenius University in Bratislava, Slovak Republic. Cg003 is a clinical isolate, characterized to be resistant to fluconazole and itraconazole due to overexpression of the multidrug resistance efflux pumps Cdr1p and Cdr2p. Saccharomyces cerevisiae (ATCC 9763), Candida albicans (ATCC 90028), Candida albicans (SC5314), Candida glabrata (ATCC 90030), Candida glabrata (Cg003) and Candida krusei (ATCC 6258) were grown in Sabouraud broth (40 g/L D-glucose, 10 g/L peptone, pH 5.6) or YPD (10 g/L yeast extract, 20 g/L Bacto-peptone, 20 g/L glucose) medium to mid log phase, aliquoted into 20% (v/v) glycerol and cryopreserved as stocks at -80°C. For each growth assay, cells from these stocks were diluted in sterile water to OD600 = 0.025, which corresponds to a final starting inoculum of 0.5–2.5 x 10^5 CFU/mL. Growth assays were carried out by pipetting 3 μL compound dissolved in DMSO, 100 μL cell suspension and 97 μL 2 x RPMI media (20.8 g/L RPMI-1640 (Sigma-Aldrich catalog number R6504) 330 mM MOPS, 36 g/L glucose) into a microtiter plate and incubating for 24 h at 34°C, followed by OD measurement at 490 nm. […]

In another assay the test system is Candida krusei ATCC 6258. Nature of the assay: Fungal growth inhibition, C. krusei. It is filed as cell-based. Particulars: Table B in S1 File, strain not stated.
Text: as §1

Certain results were filed several times, with different values. This list holds those alone. There may be further records. The values listed for one entry do not match, cause unknown; dose, time, organism, isomer or construct need not be as stated for each record.

Take `O=C(NC1CCCc2c1[nH]c1ccc(Br)cc21)c1ccccn1` (centres unmarked): the “MIC C. albicans (Table A)” value in the assay on Candida albicans is > 150 µM and nor exhibited antifungal activity.

In the case of `CC1Cc2c([nH]c3cc(Cl)c(F)cc23)C2(N1)C(=O)Nc1ccc(Cl)cc12` (centres unmarked), the “MIC C. parapsilosis (Table B)” value with C. parapsilosis was > 75 µM and does not have antifungal activity. Moreover, in the assay with Candida krusei ATCC 6258, the “MIC C. krusei (Table B)” value is > 75 µM and does not have antifungal activity. Moreover, the “MIC C. albicans (Table B)” value with Candida albicans (Table B in S1 File) is > 75 µM and does not have antifungal activity.

For `O=C(NC1CCCc2c1[nH]c1ccc(Br)cc21)c1ccccc1F` (centres unmarked), the “MIC C. albicans (Table A)” value in the assay with Candida albicans was > 150 µM and nor exhibited antifungal activity.

(Values after publication PMC5749684, “Tetrahydrocarbazoles are a novel class of potent P-type ATPase inhibitors with antifungal activity” (PLoS ONE, 2018).)
